Record: PubChem BioAssay AID1259414 (Drosophila RNAi Screening Center, 2018)

Screen: 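Fly genes that alter Wolbachia amount inside host cells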 (primary screen)
Cell system: Drosophila JW18 cells infected with Wolbachia
Reagent: long dsRNA against Drosophila genes, 0.25 µg dsRNA per well of a 384-well plate
Timing: 5 days
Challenge: cells persistently infected with Wolbachia before knock-down; no added drug
Read-out: 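Imaged fluorescence in situ signal for Wolbachia 23S rRNA per DAPI-counted host cell, given as a robust z-score within each plate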
Reading the numbers: Wolbachia per cell robust z: higher = more Wolbachia per host cell than the plate typical
Rule for the call: 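Active if absolute robust z reaches 1.5 in two or more of three replicates, leaving out multi- or no-target dsRNAs, genes unexpressed in JW18 and A1 wells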
In all, the deposit lists about 24,000 reagents; shown is a random part of those with a known target gene and a result. Over the whole deposit, about 1,210 (5%) got an active call. 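Inactive calls also include excluded dsRNAs with several or no targets, genes unexpressed in JW18, and well A1, regardless of score.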 The numbers tell different reagents against one gene apart. Names joined by + are all predicted targets of the reagent.

gene | reagent no. | Wolbachia per cell robust z, rep 1 | Wolbachia per cell robust z, rep 2 | Wolbachia per cell robust z, rep 3 | activity call
pAbp (GeneID 37070) | 1 | 3.13 | -2.67 | 5.04 | active
CG10375 (GeneID 42812) | 1 | 0.876 | 0.253 | 0.815 | inactive
CG13784 (GeneID 34003) | 1 | 0.579 | 0.674 | 0.448 | inactive
CG6805 (GeneID 36911) | 1 | -1.71 | 1.07 | 0.179 | inactive
CG6805 (GeneID 36911) | 2 | 0.61 | -0.0525 | -0.57 | inactive
CG6805 (GeneID 36911) | 3 | 0.797 | 0.477 | 0.0689 | inactive
CG18858 + CG31683 | 1 | -0.258 | 0.825 | 1.29 | inactive
CG18858 + CG31683 | 2 | 0.716 | 0.525 | -0.505 | inactive
ECSIT (GeneID 40732) | 1 | -0.799 | -0.583 | 0.47 | inactive
Mic26-27 (GeneID 41959) | 1 | -1.63 | -0.0188 | 0.229 | inactive
Nnf1b (GeneID 318874) | 1 | 0.618 | 0.593 | 0.134 | inactive
Nnf1b (GeneID 318874) | 2 | -0.125 | 1.21 | 0.648 | inactive
CG3829 (GeneID 38000) | 1 | -0.184 | -0.317 | -5.3 | inactive
CR42546 (GeneID 8674079) | 1 | 1.09 | 0.775 | -2.07 | inactive
RfC3 (GeneID 34423) | 1 | -0.599 | 0.861 | -0.608 | inactive
Tango4 (GeneID 32168) | 1 | 1.53 | 2.06 | 1.26 | active
Tango4 (GeneID 32168) | 2 | 0.877 | 1.95 | 3.06 | active
CG31419 (GeneID 326137) | 1 | 0.312 | 0.433 | 0.952 | inactive
CG31419 (GeneID 326137) | 2 | -1.02 | 0.135 | -1.07 | inactive
SLIRP2 (GeneID 41021) | 1 | -2.49 | -3.81 | -3.21 | inactive
SLIRP2 (GeneID 41021) | 2 | -1.1 | -0.34 | 0.144 | inactive
eIF3i (GeneID 33710) | 1 | 1.43 | 2.88 | 5.16 | active
Abcd1 (GeneID 43772) | 1 | -0.0938 | 0.698 | -1.22 | inactive
CG2147 (GeneID 31759) | 1 | 1.42 | -0.0254 | 0.994 | inactive
Send1 (GeneID 33407) | 1 | -8.3 | -0.476 | 0.544 | inactive
Send1 (GeneID 33407) | 2 | -2.76 | -0.469 | -0.263 | inactive
Rgk3 (GeneID 5740446) | 1 | -0.367 | -0.278 | 0.0953 | inactive
Rgk3 (GeneID 5740446) | 2 | -1 | -0.00184 | 0.17 | inactive
Rgk3 (GeneID 5740446) | 3 | -1.32 | -2.71 | -1.17 | inactive
Rgk3 (GeneID 5740446) | 4 | -0.2 | -0.722 | -0.203 | inactive
Cpr65Aw (GeneID 38706) | 1 | -1.66 | -0.942 | -0.616 | inactive
Cpr65Au (GeneID 59158) | 1 | -0.0703 | -1.59 | -1.23 | inactive
CG10948 (GeneID 39459) | 1 | 0.597 | -0.444 | 0.788 | inactive
Eip63F-1 + asRNA:Eig63F-2 | 1 | -1.25 | -1.41 | -1.28 | inactive
alpha-Est4 (GeneID 40906) | 1 | -1.98 | -0.183 | 0.92 | inactive
alpha-Est4 (GeneID 40906) | 2 | -0.488 | -0.528 | 0.228 | inactive
kek5 (GeneID 32930) | 1 | -0.0884 | 0.605 | 0.0553 | inactive
kek5 (GeneID 32930) | 2 | -1.96 | -0.382 | -1.73 | active
kek5 (GeneID 32930) | 3 | -0.603 | -2 | 0.159 | inactive
Vps25 (GeneID 35847) | 1 | -0.391 | -2.34 | -0.175 | inactive
CG6015 (GeneID 42593) | 1 | 3.69 | 2.64 | 3.95 | inactive
CG6015 (GeneID 42593) | 2 | 6.24 | 8.07 | 8.32 | inactive
comt (GeneID 47091) | 1 | -0.317 | 1.11 | -0.755 | inactive
comt (GeneID 47091) | 2 | 0.222 | 0.175 | -1.27 | inactive
CG14664 (GeneID 12798232) | 1 | -0.557 | 0.205 | 0.76 | inactive
intr (GeneID 43397) | 1 | 1.47 | 0.715 | 0.248 | inactive
ppk23 (GeneID 32731) | 1 | -4.92 | 0.411 | -0.0754 | inactive
ppk23 (GeneID 32731) | 2 | -0.0973 | 0.261 | -0.0318 | inactive
Ccdc114 (GeneID 42024) | 1 | -0.159 | 1.22 | 0.853 | inactive
Npl4 (GeneID 43091) | 1 | -0.919 | 0.303 | 0.669 | inactive
Npl4 (GeneID 43091) | 2 | -3.54 | 0.679 | -1.13 | inactive
CG32107 (GeneID 317856) | 1 | 0.0833 | 0.0188 | 0.798 | inactive
CG42529 + Vtld | 1 | 0.115 | -0.251 | 0.0165 | inactive
velo (GeneID 38748) | 1 | 3.17 | 3.53 | 4.66 | active
velo (GeneID 38748) | 2 | 1.37 | -3.23 | 1.8 | inactive
velo (GeneID 38748) | 3 | 1.43 | 1.84 | 1.54 | active
ND-13B (GeneID 39214) | 1 | -1.01 | 0.794 | 0.552 | inactive
ND-13B (GeneID 39214) | 2 | 0.491 | -2.1 | -1.36 | inactive
Gnf1 (GeneID 40607) | 1 | -0.107 | 0.799 | 0.457 | inactive
Gnf1 (GeneID 40607) | 2 | -0.52 | 0.334 | 0.0954 | inactive
wus (GeneID 32683) | 1 | -1.95 | 0.246 | -1.05 | inactive
qjt (GeneID 39952) | 1 | 0.0302 | 0.724 | -1.71 | inactive
qjt (GeneID 39952) | 2 | 0.627 | 1.32 | 0.198 | inactive
scny (GeneID 38648) | 1 | 0.599 | 0.323 | 0.204 | inactive
scny (GeneID 38648) | 2 | 0.905 | 1.44 | 0.787 | inactive
scny (GeneID 38648) | 3 | -0.593 | 0.259 | 0.809 | inactive
CG30089 (GeneID 36736) | 1 | 0.00813 | 1.46 | 0.403 | inactive
CG30089 (GeneID 36736) | 2 | -0.0355 | -0.622 | -1.53 | inactive
CG30089 (GeneID 36736) | 3 | 0.781 | 0.454 | 0.322 | inactive
dj (GeneID 40838) | 1 | 0.542 | -0.29 | -0.991 | inactive
dj (GeneID 40838) | 2 | -0.242 | -0.849 | 1.23 | inactive
CG3713 (GeneID 50365) | 1 | 0.811 | -0.0125 | -1.13 | inactive
wbl (GeneID 37206) | 1 | 0.129 | -0.835 | 0.0733 | inactive
wbl (GeneID 37206) | 2 | 0.845 | -1.85 | -0.223 | inactive
DnaJ-H (GeneID 34707) | 1 | -0.716 | -1.77 | -0.386 | inactive
CG15908 + CG9410 | 1 | -2.34 | -0.961 | 0.899 | inactive
CG15908 + CG9410 | 2 | -0.513 | -0.436 | -0.0417 | inactive
Rpn5 (GeneID 40717) | 1 | 0.627 | 0.808 | -0.682 | inactive
Rpn5 (GeneID 40717) | 2 | 1.54 | 2.4 | 0.802 | active
CG32241 (GeneID 317934) | 1 | -10.1 | -1.42 | -0.16 | inactive
CG32241 (GeneID 317934) | 2 | 0.953 | 0.753 | 0.851 | inactive
CG32241 (GeneID 317934) | 3 | 0.99 | 0.697 | 1.45 | inactive
CG32241 (GeneID 317934) | 4 | 1.36 | 1.02 | 0.0215 | inactive
nAChRalpha1 (GeneID 42918) | 1 | 1.03 | 0.174 | 0.709 | inactive
nAChRalpha1 (GeneID 42918) | 2 | 0.447 | 0.487 | 0.594 | inactive
nAChRalpha1 (GeneID 42918) | 3 | 0.811 | -7.52 | 1.32 | inactive
nAChRalpha1 (GeneID 42918) | 4 | -1.59 | 0.236 | 1.65 | inactive

Called active, among the entries above:
gene | reagent no. | Wolbachia per cell robust z, rep 1 | Wolbachia per cell robust z, rep 2 | Wolbachia per cell robust z, rep 3 | activity call
pAbp (GeneID 37070) | 1 | 3.13 | -2.67 | 5.04 | active
Tango4 (GeneID 32168) | 1 | 1.53 | 2.06 | 1.26 | active
Tango4 (GeneID 32168) | 2 | 0.877 | 1.95 | 3.06 | active
eIF3i (GeneID 33710) | 1 | 1.43 | 2.88 | 5.16 | active
kek5 (GeneID 32930) | 2 | -1.96 | -0.382 | -1.73 | active
velo (GeneID 38748) | 1 | 3.17 | 3.53 | 4.66 | active
velo (GeneID 38748) | 3 | 1.43 | 1.84 | 1.54 | active
Rpn5 (GeneID 40717) | 2 | 1.54 | 2.4 | 0.802 | active
